Measured values from several laboratories, pooled; numbers as filed in NIAID ChemDB.

Shared fields: toxicity to cultured cells; cell line: MT-4; measure: CC50

Blank or dashed fields: not listed here.

SMILES,read by,result
O=C1NCc2c1ccnc2-c1cc(-c2cc(Cl)cc(C(F)(F)F)c2)n(-c2ccc(F)c(Cl)c2)n1,resazurin,>3.3 µM
Cc1cc(C)c(-n2c(SCC(=O)Nc3ccc([N+](=O)[O-])cc3Cl)nc3cccnc32)c(C)c1,MTT,25 µM
COc1cc(/C=C/c2nc(NC(=S)Nc3cccc(C)c3)c3ccccc3n2)cc(OC)c1OC,MTT,5.46 µg/mL
Cc1cc(C)c(-n2c(SCC(=O)Nc3ccc(S(N)(=O)=O)cc3Br)nc3cnccc32)c(C)c1,MTT,9.7 µM
O=c1c2ccccc2nc2sc(Nc3ccccc3)nn12,MTT,>42.9 µg/mL
Cc1cc(C)c(-n2c(SCC(=O)Nc3ccc(C)cc3Br)nc3cccnc32)c(C)c1,MTT,0.99 µM
CCOC(=O)CNc1nc(Nc2ccc(F)cc2)nc(Oc2cc(=O)oc3ccccc23)n1,MTT,67.6 µg/mL
O=C1NCc2c1cccc2-c1cc(-c2ccc(F)c(OC(F)(F)F)c2)n(-c2cccc(Cl)c2)n1,resazurin,>3.3 µM
CCOC(=O)c1cn(CC(O)CNc2ccccc2C(=O)OC)cc1-c1ccccc1,-,37 µM
CCCCCCCCCCCCCCCCCC(=O)OCOc1c2n(cc(C(=O)NCc3ccc(F)cc3F)c1=O)[C@@H]1CN(C2=O)[C@@H](C)CC[C@]12CC(OC)=NO2,luminescence,50 µM
Cc1cn([C@H]2C[C@H](N=[N+]=[N-])[C@@H](CO)O2)c(=O)[nH]c1=O,MTT,47.4 µg/mL
CCOC(=O)CNc1nc(NC(=O)Nc2cccc(C)c2)nc(Oc2cc(=O)oc3ccccc23)n1,MTT,14.23 µg/mL
CCOC(=O)c1ccc(NC(=O)COc2cccnc2-c2cccc3ccccc23)cc1,MTT / absorbance,49.5 µM
COC(=O)c1ccccc1NCC(O)Cn1c(C(=O)NC(C)(C)C)cc2cc(Cl)ccc21,-,112 µM
Nc1ccn([C@H]2CS[C@@H](COC(=O)CCCCCNCc3ccccc3)O2)c(=O)n1,-,>50 µM
COC(=O)c1ccc(NC(=O)COc2cccnc2-c2cccc3ccccc23)cc1,MTT / absorbance,64.9 µM
O=C1NCc2c1ccnc2-c1cc(-c2cc(F)cc(OC(F)(F)F)c2)n(-c2cccnc2)n1,resazurin,>3.3 µM
Cc1cc(/C=C/C#N)cc(C)c1Oc1ccnc(S(=O)(=O)CC(=O)NCc2ccc(F)cc2)n1,MTT,5.29 µM
COC1=NO[C@@]2(CC[C@H](C)N3C[C@H]2n2cc(C(=O)NCc4ccc(F)cc4F)c(=O)c(OCOC(=O)OC(C)C)c2C3=O)C1,luminescence,50 µM
Nc1ncnc2c1ncn2C[C@@H](CO)OCP(=O)(O)O,-,26 µM
Cc1cc(-c2ccc(C#N)cc2)cc(C)c1Oc1ccnc(S(=O)(=O)CC(=O)NCc2ccc(Cl)cc2)n1,MTT,3.86 µM
Nc1nc(N)c2ncn(C[C@H](CO)OCP(=O)(O)O)c2n1,-,>300 µM
Cc1cc(-c2ccc(C#N)cc2)cc(C)c1Oc1ccnc(S(=O)(=O)C(C)C(=O)NCc2ccc(Br)cc2)n1,MTT,4.76 µM
COc1ccc(CCNc2nc(NC(=S)Nc3ccccc3C)nc(Oc3cc(=O)oc4ccccc34)n2)cc1OC,MTT,20.03 µg/mL
Cc1cc(C)cc(S(=O)(=O)c2c(C(=O)N[C@@H]3CCN(Cc4n[nH]c(=O)n4C)C3)[nH]c3ccc(Cl)cc23)c1,MTT,22.43 µM
COc1cccc2c1nc(-c1ccccc1F)n2Cc1ccc(C(F)(F)F)cc1,-,>5 µg/mL
Cc1cc(C)c(-n2c(SCC(=O)Nc3ccccc3[N+](=O)[O-])nc3cccnc32)c(C)c1,MTT,39 µM
N#Cc1ccc(NC(=O)COc2cccnc2-c2cccc3ccccc23)cc1,MTT / absorbance,39.5 µM
CCOC(=O)c1cccn1CC(O)CNc1ccccc1,-,>200 µM
CCCCCCCCCCCCOC(=O)OCOc1c2n(cc(C(=O)NCc3ccc(F)cc3F)c1=O)[C@@H]1CN(C2=O)[C@@H](C)CC[C@]12CC(C)=NO2,luminescence,50 µM
CCOC(=O)c1cn(CC(O)CNc2ccccc2)cc1-c1ccccc1,-,45 µM
CC(C)(C)OC(=O)N(CCCCCC(=O)Nc1ccn([C@H]2CS[C@@H](CO)O2)c(=O)n1)CCCCCN(Cc1ccccc1)C(=O)OC(C)(C)C,-,10 µM
COc1ccc(OC)c2c(NC(=S)N[C@H]3C[C@H](n4cc(C)c(=O)[nH]c4=O)O[C@@H]3CO)c3ccccc3c(C#N)c12,-,7.1 µg/mL
O=C(CCCCCNCCCCNCc1ccccc1)Nc1ccn([C@@H]2CS[C@@H](CO)O2)c(=O)n1,-,>50 µM
COc1cc(/C=C/c2nc(NC(=S)Nc3ccc(Cl)cc3)c3ccccc3n2)cc(OC)c1OC,MTT,1.73 µg/mL
COc1cccc2c1nc(-c1ccccc1F)n2C(=O)OC(C)C,-,17.9 µg/mL
Nc1ncnc2c1ncn2C[C@H](CF)OCP(=O)(O)O,-,>300 µM
COc1cc(/C=C/c2nc(NC(=S)Nc3cccc([N+](=O)[O-])c3)c3ccccc3n2)cc(OC)c1OC,MTT,3.07 µg/mL
CC(C)(C)OC(=O)N(CCCCCC(=O)Nc1ccn([C@@H]2CS[C@@H](CO)O2)c(=O)n1)CCCCN(Cc1ccccc1)C(=O)OC(C)(C)C,-,10 µM
COc1cc(/C=C/c2nc(NC(=O)Nc3cccc(C)c3)c3ccccc3n2)cc(OC)c1OC,MTT,0.96 µg/mL
Cc1cc(C)cc(S(=O)(=O)c2c(C(=O)NCCP(=O)(O)O)[nH]c3ccc(Cl)cc23)c1,MTT,>265 µM
COc1ccc(CCNc2nc(NC(=O)Nc3ccc(Cl)cc3)nc(Oc3cc(=O)oc4ccccc34)n2)cc1OC,MTT,35.43 µg/mL
CCCCCCCCC(=O)OCOc1c2n(cc(C(=O)NCc3ccc(F)cc3F)c1=O)[C@@H]1CN(C2=O)[C@@H](C)CC[C@]12CC(C)=NO2,luminescence,50 µM
COC(=O)c1ccc(NC(=O)COc2cccnc2-c2cccc3ccccc23)c([N+](=O)[O-])c1,MTT / absorbance,62 µM
O=C1NCc2c1ccnc2-c1cc(-c2cc(Br)cc(OC(F)(F)F)c2)n(-c2ccc(F)c(Cl)c2)n1,resazurin,>3.3 µM
Cc1cccc(Nc2nn3c(=O)c4ccccc4nc3s2)c1,MTT,>40.65 µg/mL
Cc1cc(C)cc(S(=O)(=O)c2c(C(=O)NS(C)(=O)=O)[nH]c3ccc(Cl)cc23)c1,MTT,>283.5 µM
COc1cccc2c1nc(-c1ccccc1F)n2Cc1ccccc1C(F)(F)F,-,>25 µg/mL
CCCCCCCCCCCCCCCCOC(=O)OCOc1c2n(cc(C(=O)NCc3ccc(F)cc3F)c1=O)[C@@H]1CN(C2=O)[C@@H](C)CC[C@]12CC(C)=NO2,luminescence,50 µM
Cc1cc(C)cc(S(=O)(=O)c2c(C(=O)N[C@H]3CCN(CC(N)=O)C3)[nH]c3ccc(Cl)cc23)c1,MTT,28.07 µM
O=C1NCc2c1ccnc2-c1cc(-c2cc(Cl)cc(OC(F)(F)F)c2)n(-c2ccc(F)c(Cl)c2)n1,resazurin,>3.3 µM
Cc1cc(/C=C/C#N)cc(C)c1Oc1ccnc(S(=O)(=O)CC(=O)NCCc2ccc(Cl)cc2)n1,MTT,24.46 µM
COc1cccc2c1nc(-c1ccccc1F)n2Cc1cc(F)ccc1F,-,14.7 µg/mL
COc1cccc(-n2nc(-c3cccc4c3CNC4=O)cc2-c2ccnc(Cl)c2)c1,resazurin,>3.3 µM
Cc1cc(C#N)cc(C)c1Oc1nc(Nc2ccc(C#N)cc2)nc(N)c1Br,MTT,>4.61 µM
C[C@@H](Cn1cnc2c(N)nc(N)nc21)OCP(=O)(O)O,-,>300 µM
CCCCCCCCCOC(=O)OCOc1c2n(cc(C(=O)NCc3ccc(F)cc3F)c1=O)[C@@H]1CN(C2=O)[C@@H](C)CC[C@]12CC(C)=NO2,luminescence,50 µM
Cc1ccc(-n2nc(-c3nccc4c3CNC4=O)cc2-c2cc(F)cc(Cl)c2)cc1Cl,resazurin,>3.3 µM
CC(C)(C)OC(=O)N(CCCCCC(=O)Nc1ccn([C@H]2CS[C@@H](COC(=O)CCCCCN(CCCCN(Cc3ccccc3)C(=O)OC(C)(C)C)C(=O)OC(C)(C)C)O2)c(=O)n1)CCCCN(Cc1ccccc1)C(=O)OC(C)(C)C,-,10 µM

The last 8 rows once more:

Cc1cc(/C=C/C#N)cc(C)c1Oc1ccnc(S(=O)(=O)CC(=O)NCCc2ccc(Cl)cc2)n1 ; read by: MTT ; result: 24.46 µM
COc1cccc2c1nc(-c1ccccc1F)n2Cc1cc(F)ccc1F ; result: 14.7 µg/mL
COc1cccc(-n2nc(-c3cccc4c3CNC4=O)cc2-c2ccnc(Cl)c2)c1 ; read by: resazurin ; result: >3.3 µM
Cc1cc(C#N)cc(C)c1Oc1nc(Nc2ccc(C#N)cc2)nc(N)c1Br ; read by: MTT ; result: >4.61 µM
C[C@@H](Cn1cnc2c(N)nc(N)nc21)OCP(=O)(O)O ; result: >300 µM
CCCCCCCCCOC(=O)OCOc1c2n(cc(C(=O)NCc3ccc(F)cc3F)c1=O)[C@@H]1CN(C2=O)[C@@H](C)CC[C@]12CC(C)=NO2 ; read by: luminescence ; result: 50 µM
Cc1ccc(-n2nc(-c3nccc4c3CNC4=O)cc2-c2cc(F)cc(Cl)c2)cc1Cl ; read by: resazurin ; result: >3.3 µM
CC(C)(C)OC(=O)N(CCCCCC(=O)Nc1ccn([C@H]2CS[C@@H](COC(=O)CCCCCN(CCCCN(Cc3ccccc3)C(=O)OC(C)(C)C)C(=O)OC(C)(C)C)O2)c(=O)n1)CCCCN(Cc1ccccc1)C(=O)OC(C)(C)C ; result: 10 µM

Conditions beyond the fields shown may differ between rows. CCn: concentration that lowers growth or viability of the cells by n%.